For the test, the target named is Nonstructural protein 3 (Zika virus, UniProt A0A024AXB9).

Protein sequences, listed by entry. Tags and fused reporters are not part of them. Residues count along the entry.
UniProt A0A024AXB9, 1-66: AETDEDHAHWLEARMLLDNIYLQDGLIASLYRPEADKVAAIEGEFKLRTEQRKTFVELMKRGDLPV

pIC50: −log10 of the molar value. This is a selection: effects in other tests are not listed, and their absence says nothing.

As usually defined, the pIC50 is the IC50 on a negative log10 scale, so that one unit is a factor of ten. Higher therefore signals a small IC50. `c1ccc(NC2CCN(Cc3c[nH]c4ccccc34)CC2)cc1`: the pIC50 was less than 4.00. The figure for `O=c1[nH]c2ccccc2n1C1CCN(Cc2c[nH]c3ccccc23)CC1` is 4.45.

Values taken from ChEMBL document CHEMBL5604062, “ASAP - ZIKV NS2B-NS3 protease fluorescence dose response” (2024).
